Measured values from several laboratories, pooled; numbers as filed in NIAID ChemDB.

All rows: tests on isolated targets; species: HIV-1; target: Reverse transcriptase

ICn is the concentration giving n% inhibition. Two numbers with a dash give a range or band. Lines come from different laboratories, so protocols vary. Blank or dashed fields: not listed here.

structure,mutations,strain,measure,read by,result
Cc1cn([C@H]2C=C[C@@H](COP(=O)(O)OP(=O)(O)OP(=O)(O)O)O2)c(=O)[nH]c1=O,,,IC50,nucleotide incorporation / radiometric,0.2 µM
Cc1cn([C@H]2CC[C@@H](COP([O-])(=S)OP(=O)(O)C(F)(F)P(=O)(O)O)O2)c(=O)[nH]c1=O,,,IC50,fluorescence,>0.5 µM
O=c1c2cccn2c2ccccc2n1CCNC(=S)Nc1ccc(Br)cn1,,,Ki,nucleotide incorporation,0.058 µM
Cc1ccc(NC(=S)NC[C@H](C)c2ccccc2)nc1,,,IC50,,0.52 µM
CCN1c2ncc(CCOc3ccc(C(=O)O)c4ccccc34)cc2C(=O)N(C)c2cccnc21,,WT,IC50,nucleotide incorporation / radiometric,<0.1 µM
Cc1cc(C)c(-n2nnnc2SCC(=O)Nc2cccc(F)c2C#N)c(C)c1,,,IC50,nucleotide incorporation / radiometric,<2 µM
CS(=O)(=O)N1CCN(C(=O)c2cc(O)c(O)c(O)c2)CC1,,BH10,IC50,ELISA / nucleotide incorporation,>50 µM
O=c1cnc2ccccc2n1CCNC(=S)Nc1ccc(Br)cn1,RT-Y188L,,Ki,nucleotide incorporation,0.8 µM
Cc1cc(C)c(-n2nnnc2SCC(=O)Nc2cccc([N+](=O)[O-])c2)c(C)c1,,,IC50,nucleotide incorporation / radiometric,<2 µM
COc1ccc2c(c1)N(C(=O)OC(C)C)[C@@H](CSC)C(=S)N2,RT-P236L,,IC50,scintillation proximity / radiometric,0.11 µM
O=c1c2cccn2c2cccc(F)c2n1CCNC(=S)Nc1ccc(Br)cn1,RT-V106A,,Ki,nucleotide incorporation,0.015 µM
Cc1cccc(Cl)c1-n1nnnc1SCC(=O)Nc1ccccc1Cl,,,IC50,nucleotide incorporation / radiometric,<2 µM
CCN1c2ncc(CCOc3ccc(CC(=O)O)c4ccccc34)cc2C(=O)N(C)c2ccc(F)nc21,RT-V106A,,IC50,nucleotide incorporation / radiometric,>1 µM
Cc1ccc(NC(=S)NC[C@@H](C)c2ccccc2)nc1,,,IC50,,7.7 µM
Cc1cc(C)c(-n2nnnc2SCC(=O)Nc2ccc(Cl)cc2F)c(C)c1,,,IC50,nucleotide incorporation / radiometric,<2 µM
CCN1c2ncc(CCOc3ccc(CCC(=O)O)c4ccccc34)cc2C(=O)Nc2c(C)ccnc21,RT-K103N Y181C,,IC50,nucleotide incorporation / radiometric,>1 µM
C[C@H](NC(=S)Nc1ccc(Cl)cn1)c1cccc2ccccc12,,,IC50,,>100 µM
Cc1cc(C)cc(S(=O)(=O)N2CCN(C(=O)c3cc(O)c(O)c(O)c3)CC2)c1,,BH10,IC50,ELISA / nucleotide incorporation,>50 µM
Cc1cc(C)c(-n2nnnc2SCC(=O)Nc2sccc2C#N)c(C)c1,,,IC50,nucleotide incorporation / radiometric,<2 µM
Nc1ccn([C@@H]2CS[C@H](COP(=O)(O)OP(=O)(O)C(F)(F)P(=O)(O)O)O2)c(=O)n1,,,IC50,fluorescence,>0.5 µM
O=C(CSc1nnnn1-c1c(Cl)cccc1Cl)Nc1ccccc1Cl,,,IC50,nucleotide incorporation / radiometric,<2 µM
Cc1cc(C)nc(NC(=S)N[C@H](C)c2cccc3ccccc23)c1,,,IC50,,40 µM
CCS(=O)(=O)N1CCC(NC(=O)c2cc(O)c(O)c(O)c2)CC1,,BH10,IC50,ELISA / nucleotide incorporation,>293.3 µM
C=C(CC(=O)O)c1ccc(OCCc2cnc3c(c2)C(=O)N(C)c2cccnc2N3CC)c2ccccc12,,WT,IC50,nucleotide incorporation / radiometric,<0.1 µM
COc1ccc2nc(NC(=S)N[C@@H](C)c3ccccc3)sc2c1,,,IC50,,>100 µM
Cc1cn([C@H]2CC[C@@H](COP([O-])(=S)OP(=O)(O)C(F)(F)P(O)(O)=S)O2)c(=O)[nH]c1=O,,,IC50,fluorescence,>0.5 µM
Cc1cc(S(N)(=O)=O)ccc1NC(=O)COc1ccc(Cl)cc1C(=O)c1cc(Cl)cc(C#N)c1,RT-L100I,,IC50,fluorescence,0.00084 µM
CCN1c2ncc(CCOc3cccc4c3CCCN4CC(=O)O)cc2C(=O)N(C)c2cccnc21,,WT,IC50,nucleotide incorporation / radiometric,<0.1 µM
CN(C)S(=O)(=O)N1CCN(C(=O)c2cc(O)c(O)c(O)c2)CC1,,BH10,IC50,ELISA / nucleotide incorporation,>50 µM
CC(=O)Nc1ccc(Cl)c(NC(=O)CSc2nnnn2-c2c(C)cc(C)cc2C)c1,,,IC50,nucleotide incorporation / radiometric,<2 µM
CCN1c2ncc(CCOc3ccc4cc(C(=O)O)ccc4c3)cc2C(=O)N(C)c2cccnc21,RT-K103N Y181C,,IC50,nucleotide incorporation / radiometric,0.1–1 µM
Cc1cn([C@H]2C[C@H](N=[N+]=[N-])[C@@H](COP([O-])(=S)OP(=O)(O)C(F)(F)P(=O)(O)O)O2)c(=O)[nH]c1=O,,,Ki,fluorescence,0.09 µM
O=C(NC1CCN(C(=O)c2ccccc2)CC1)c1cc(O)c(O)c(O)c1,,BH10,IC50,ELISA / nucleotide incorporation,≥296 µM
Cc1cc(C)nc(NC(=S)N[C@@H](C)c2cccc3ccccc23)c1,,,IC50,,>100 µM
Cc1cc2c(cc1C)n1cccc1c(=O)n2CCNC(=S)Nc1ccc(Br)cn1,RT-V106A,,Ki,nucleotide incorporation,0.03 µM
C[C@@H](NC(=S)Nc1ccc(Br)cn1)c1cccc2ccccc12,,,IC50,,0.67 µM
Cc1cc(C)c(-n2nnnc2SCC(=O)Nc2cc(F)ccc2F)c(C)c1,,,IC50,nucleotide incorporation / radiometric,<2 µM

Repeating the final 4 entries:

structure | mutations | strain | measure | read by | result
Cc1cc(C)nc(NC(=S)N[C@@H](C)c2cccc3ccccc23)c1 |  |  | IC50 |  | >100 µM
Cc1cc2c(cc1C)n1cccc1c(=O)n2CCNC(=S)Nc1ccc(Br)cn1 | RT-V106A |  | Ki | nucleotide incorporation | 0.03 µM
C[C@@H](NC(=S)Nc1ccc(Br)cn1)c1cccc2ccccc12 |  |  | IC50 |  | 0.67 µM
Cc1cc(C)c(-n2nnnc2SCC(=O)Nc2cc(F)ccc2F)c(C)c1 |  |  | IC50 | nucleotide incorporation / radiometric | <2 µM